# From paper PMC8915965, “CD164 is a host factor for lymphocytic choriomeningitis virus entry” (2022)
# Experiment: acid bypass with Bafilomycin A1, eGFP flow cytometry
# Conditions: glycan lost; control: hCD164PM
protein,measurement,value
CD164: N104Q hCD164PM (protein) parent chain: MSRLSRSLLWAATCLGVLCVLSADKNTTQHPNVTTLAPISNVTSAPVTSLPLVTTPAPETCEGRNSCVSCFNVSVVNTTCFWIECKDESYCSHNSTVSDCQVGNTTDFCSVSTATPVPTANSTAKPTVQPSPSTTSKTVTTSGTTNNTVTPTSQPVRKSTFDAASFIGGIVLVLGVQAVIFFLYKFCKSKERNYHTL,other: virus-cell fusion at plasma membrane,abolishes
